Measurements reported in PubChem BioAssay AID1259414 (Drosophila RNAi Screening Center, 2018)

Purpose: 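Genome-wide screen for host control of endosymbiont load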 (primary screen)
Cells: Drosophila JW18 cells infected with Wolbachia
Reagents: long dsRNA against Drosophila genes, 0.25 µg dsRNA per well of a 384-well plate
Timing: 5 days
Treatment: cells persistently infected with Wolbachia before knock-down; no added drug
Read-out: 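Imaged fluorescence in situ signal for Wolbachia 23S rRNA per DAPI-counted host cell, given as a robust z-score within each plate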
Scale: Wolbachia per cell robust z: higher = more Wolbachia per host cell than the plate typical
Rule for the call: 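Active if absolute robust z reaches 1.5 in two or more of three replicates, leaving out multi- or no-target dsRNAs, genes unexpressed in JW18 and A1 wells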
The deposit covers about 24,000 reagents; below is a random part of those that have a named target and a result. In the full data, about 1,210 (5%) were called active. 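Inactive calls also include excluded dsRNAs with several or no targets, genes unexpressed in JW18, and well A1, regardless of score.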 Reagents against one gene are numbered here.

CG18557 | Wolbachia per cell robust z, rep 1: -1.74; Wolbachia per cell robust z, rep 2: -3.12; Wolbachia per cell robust z, rep 3: -2.8; Outcome: inactive
Dll #1 | Wolbachia per cell robust z, rep 1: 0.0451; Wolbachia per cell robust z, rep 2: 0.495; Wolbachia per cell robust z, rep 3: 0.152; Outcome: inactive
Dll #2 | Wolbachia per cell robust z, rep 1: -0.00491; Wolbachia per cell robust z, rep 2: -0.675; Wolbachia per cell robust z, rep 3: 0.296; Outcome: inactive
CG5149 #1 | Wolbachia per cell robust z, rep 1: -0.775; Wolbachia per cell robust z, rep 2: -0.0376; Wolbachia per cell robust z, rep 3: 0.994; Outcome: inactive
CG5149 #2 | Wolbachia per cell robust z, rep 1: 1.77; Wolbachia per cell robust z, rep 2: 1.25; Wolbachia per cell robust z, rep 3: 1.33; Outcome: inactive
hbn #1 | Wolbachia per cell robust z, rep 1: -1.2; Wolbachia per cell robust z, rep 2: -0.308; Wolbachia per cell robust z, rep 3: 0.906; Outcome: inactive
hbn #2 | Wolbachia per cell robust z, rep 1: -0.596; Wolbachia per cell robust z, rep 2: -3; Wolbachia per cell robust z, rep 3: -0.091; Outcome: inactive
hbn #3 | Wolbachia per cell robust z, rep 1: -2.4; Wolbachia per cell robust z, rep 2: -0.0174; Wolbachia per cell robust z, rep 3: 0.165; Outcome: inactive
CG14450 #1 | Wolbachia per cell robust z, rep 1: 0.223; Wolbachia per cell robust z, rep 2: 0.646; Wolbachia per cell robust z, rep 3: 1.73; Outcome: inactive
CG14450 #2 | Wolbachia per cell robust z, rep 1: -0.754; Wolbachia per cell robust z, rep 2: -2.65; Wolbachia per cell robust z, rep 3: -1.63; Outcome: active
Rgk2 #1 | Wolbachia per cell robust z, rep 1: 0.666; Wolbachia per cell robust z, rep 2: 0.854; Wolbachia per cell robust z, rep 3: -0.674; Outcome: inactive
Rgk2 #2 | Wolbachia per cell robust z, rep 1: 1.12; Wolbachia per cell robust z, rep 2: 0.695; Wolbachia per cell robust z, rep 3: -1.1; Outcome: inactive
Rgk2 #3 | Wolbachia per cell robust z, rep 1: -0.54; Wolbachia per cell robust z, rep 2: 0.502; Wolbachia per cell robust z, rep 3: -0.503; Outcome: inactive
Rgk2 #4 | Wolbachia per cell robust z, rep 1: -0.826; Wolbachia per cell robust z, rep 2: -0.15; Wolbachia per cell robust z, rep 3: -0.505; Outcome: inactive
Nepl12 | Wolbachia per cell robust z, rep 1: -0.322; Wolbachia per cell robust z, rep 2: 0.602; Wolbachia per cell robust z, rep 3: -4.8; Outcome: inactive
scyl #1 | Wolbachia per cell robust z, rep 1: 0.762; Wolbachia per cell robust z, rep 2: -1.03; Wolbachia per cell robust z, rep 3: 0.658; Outcome: inactive
scyl #2 | Wolbachia per cell robust z, rep 1: -0.401; Wolbachia per cell robust z, rep 2: -0.373; Wolbachia per cell robust z, rep 3: -0.857; Outcome: inactive
CG12912 | Wolbachia per cell robust z, rep 1: -1.5; Wolbachia per cell robust z, rep 2: -0.908; Wolbachia per cell robust z, rep 3: 0.427; Outcome: inactive
CG15602 #1 | Wolbachia per cell robust z, rep 1: 0.585; Wolbachia per cell robust z, rep 2: -0.0566; Wolbachia per cell robust z, rep 3: 0.0595; Outcome: inactive
CG15602 #2 | Wolbachia per cell robust z, rep 1: 0.482; Wolbachia per cell robust z, rep 2: 0.901; Wolbachia per cell robust z, rep 3: 0.576; Outcome: inactive
aly #1 | Wolbachia per cell robust z, rep 1: 0.222; Wolbachia per cell robust z, rep 2: 0.517; Wolbachia per cell robust z, rep 3: 0.783; Outcome: inactive
aly #2 | Wolbachia per cell robust z, rep 1: -0.595; Wolbachia per cell robust z, rep 2: -2.11; Wolbachia per cell robust z, rep 3: -0.815; Outcome: inactive
aly #3 | Wolbachia per cell robust z, rep 1: -0.284; Wolbachia per cell robust z, rep 2: 0.405; Wolbachia per cell robust z, rep 3: -0.655; Outcome: inactive
CG14540 #1 | Wolbachia per cell robust z, rep 1: 1.23; Wolbachia per cell robust z, rep 2: 1.27; Wolbachia per cell robust z, rep 3: 1.15; Outcome: inactive
CG14540 #2 | Wolbachia per cell robust z, rep 1: -0.0195; Wolbachia per cell robust z, rep 2: -0.354; Wolbachia per cell robust z, rep 3: 0.494; Outcome: inactive
CG14540 #3 | Wolbachia per cell robust z, rep 1: 0.127; Wolbachia per cell robust z, rep 2: 0.271; Wolbachia per cell robust z, rep 3: -2.79; Outcome: inactive

Single entries from the entries so far:
Value of CG14540 #3 under “Wolbachia per cell robust z, rep 3”: -2.79
hbn #2, Wolbachia per cell robust z, rep 1 → -0.596
